Molecular target: plasmepsin II from Plasmodium falciparum (Plm II) (Plasmodium falciparum, UniProt P46925)
Assay: Plasmepsin II inhibition assay, hydrolysis of chromogenic substrate
Format: biochemical
Details: read-out: Ki Plm II; 25° C., 10 mM sodium formate, 2% DMSO, pH 4.0; fit to competitive inhibition
Method: FIG. 7A-C. Inhibition of Plasmepsin II from Plasmodium falciparum by KNI-10033, KNI-10030 and KNI-10006 at 20° C. in 10 mM sodium citrate, 100 mM NaCl, 2% DMSO, pH 4.0. The inhibition constants are 3 nM, 11 nM and 0.5 rLM respectively.
The specific activity of plasmepsin II from Plasmodium falciparum (Plm II) cloned in and purified from Escherchia coli and commercially available human Cathepsin D were measured by following the hydrolysis of the chromogenic substrate Ala-Leu-Glu-Arg-Thr-nPhe-Phe-Ser-Phe-Pro-Thr-OH (California Peptide Research Inc., Napa, Calif.). The decrease in absorbance upon hydrolysis is monitored at 300 nm. Typical Plasmepsin II preparations hydrolyze chromogenic substrate at 4-5 s^−1 at 37° C. The inhibition assays were performed at 25° C. in 10 mM sodium formate, 2% DMSO, pH 4.0. These pH conditions mimic the conditions in the food vacuole of the parasite. Under the conditions of the assays the Km for plasmepsin II is 20 μM and for human Cathepsin D is 130 μM. Inhibition constants (Ki) for the inhibitors are obtained at the desired temperature and solvent conditions by measuring the rate of substrate hydrolysis at increasing amounts of inhibitors. Exemplary results from three compounds (KNI-10033, KNI-10030 and KNI-10006) are shown in FIG. 7A-C, and the results obtained with all KNI compounds tested are given in Table 1.

Sequences of proteins named here, by UniProt entry; tags and fusion partners are left off. Residues count along the entry.
UniProt P46925, 125-453 limits assumed: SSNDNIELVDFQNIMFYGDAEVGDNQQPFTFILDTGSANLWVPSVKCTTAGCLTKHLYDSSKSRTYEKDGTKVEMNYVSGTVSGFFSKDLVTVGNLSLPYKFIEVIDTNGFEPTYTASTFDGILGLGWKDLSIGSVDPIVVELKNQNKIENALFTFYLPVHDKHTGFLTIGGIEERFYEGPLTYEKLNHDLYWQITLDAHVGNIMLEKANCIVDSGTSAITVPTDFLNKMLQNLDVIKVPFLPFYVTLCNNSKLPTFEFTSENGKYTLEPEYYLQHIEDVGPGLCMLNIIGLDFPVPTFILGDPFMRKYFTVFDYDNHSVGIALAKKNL

Row | Structure (SMILES) | Ki [µM]
1 | C[C@@H](O)[C@H](NC(=O)COc1cccc2cnccc12)C(=O)N[C@@H](Cc1ccccc1)[C@H](O)C(=O)N1CSC(C)(C)[C@H]1C(=O)NC(C)(C)C | 2.62
2 | Cc1c(O)cccc1C(=O)N[C@@H](Cc1ccccc1)[C@H](O)C(=O)N1CSC[C@H]1C(=O)NC(C)(C)C | 8.6

Reference: US7560482B2, “Inhibitors of plasmepsins” (The Johns Hopkins University, priority 2001, dated 2009)
